Experimental findings from paper PMC5559489 (Scientific Reports, 2017) are described below.

The target in the test is influenza A(H1N1)pdm2009 virus neuraminidase (NA) (Influenza A virus, UniProt C3W5S3). Kind of test: fluorescence-based neuraminidase inhibition (NAI) assay with 4-MU-NANA, A(H1N1)pdm09 isolates.

Consider `CCOC(=O)C1=C[C@@H](OC(CC)CC)[C@H](NC(C)=O)[C@@H](N)C1` [oseltamivir, Oseltamivir], for which the “share of resistant viruses among tested viruses, Pandemic A(H1N1)” value (samples of 2013 (June–Sept.)) was found to be 2.52% and the “share of resistant viruses among tested viruses, Pandemic A(H1N1)” value (samples of 2014 (March–April)) is reported as 2.32%.
